A mixed list of measured activities; the numbers were collected in NIAID ChemDB.

Shared fields: whole-cell or culture tests; organism: Candida albicans; method: broth dilution; endpoint: MIC

Two numbers with a dash give a range or band. Blank or dashed fields: not listed here. Lines come from different laboratories, so protocols vary.

smiles,strain,result
c1ccc(CN(Cc2ccccn2)Cc2c3ccccc3cc3ccccc23)nc1,ATCC 10213,>1000 µg/mL
C[C@@H]1[C@H](O)[C@@H](C)/C=C/C=C/C=C/C=C/C=C/C=C/C=C/[C@H](O[C@@H]2O[C@H](C)[C@@H](O)[C@H](N)[C@@H]2O)C[C@@H]2O[C@](O)(C[C@@H](O)C[C@@H](O)[C@H](O)CC[C@@H](O)C[C@@H](O)CC(=O)O[C@H]1C)C[C@H](O)[C@H]2C(=O)O,ATCC 18804,0.08 µg/mL
N#CC1=C(N)Oc2c(c(=O)oc3ccccc23)C1c1cc2ccccc2nc1Sc1ccccc1,MTCC 227,250 µg/mL
c1ccc(NP2(Nc3ccccc3)=NP34=NP5(=N2)NCCCN5CCCCN3CCCN4)cc1,ATCC 102031,2–1024 µg/mL
CSc1ccc2c(c1)C(N1CCN(C)CC1)Cc1ccccc1S2,-,64 µg/mL
CCOC(=O)C1=C(N)N(c2nc(-c3ccccc3O)cs2)C2=C(C(=O)CCC2)C1c1cc2cc(C)ccc2nc1F,MTCC 227,250 µg/mL
CC/C(=C(\c1ccccc1)c1ccc(OCCN(C)C)cc1)c1ccccc1,-,32 µg/mL
CCOC(=O)C1=C(N)N(c2nc(-c3ccc(Cl)cc3)cs2)C2=C(C(=O)CCC2)C1c1cc2cc(C)ccc2nc1F,MTCC 227,200 µg/mL
Cc1ccccc1O,-,1050 µg/mL
COc1ccc2nc(Sc3ccccc3)c(C3C(C#N)=C(N)Oc4c3c(=O)oc3ccccc43)cc2c1,MTCC 227,1000 µg/mL
C[C@@H]1[C@H](O)[C@@H](C)/C=C/C=C/CC/C=C/C=C/C=C/C=C/C(O[C@H]2O[C@H](C)[C@@H](O)[C@H](N)[C@@H]2O)CC2O[C@](O)(CC(O)C(O)CCC(O)CC(O)CC(O)CC(=O)O[C@H]1C)CC(O)C2C(=O)O,-,1500 µM
O=C(O)c1cn(C2CC2)c2cc(N3CCNCC3)c(F)cc2c1=O,ATCC 10231,2 µg/mL
C=CCc1ccc(OC)c(OC)c1,-,1700 µg/mL
COc1ccc2nc(Sc3ccc(C)cc3)c(C3C(C#N)=C(N)Oc4cc(C)oc(=O)c43)cc2c1,MTCC 227,500 µg/mL
COc1ccc2nc(F)c(C3C(C#N)=C(N)N(c4nc(-c5ccc(Cl)cc5)cs4)C4=C3C(=O)CCC4)cc2c1,MTCC 227,500 µg/mL
COc1ccc2nc(N3CCOCC3)c(/C=C(/C#N)c3nc4ccc(C)cc4[nH]3)cc2c1,MTCC 227,500 µg/mL
Cc1ccc2oc(=O)c3c(c2c1)OC(N)=C(C#N)C3c1cc2ccccc2nc1Sc1ccccc1,MTCC 227,1000 µg/mL
Cc1cccc(O)c1,-,850 µg/mL
O=c1c(O)c(-c2ccccc2)oc2cc(O)cc(O)c12,-,<80 µg/mL
C[C@H]1[C@H](O)[C@@H](C)/C=C/C=C/C=C/C=C/C=C/C=C/C=C/[C@H](O[C@@H]2O[C@H](C)[C@@H](O)[C@H](N)[C@@H]2O)C[C@@H]2O[C@](O)(C[C@@H](O)C[C@@H](O)CC[C@H](O)[C@@H](O)C[C@@H](O)CC(=O)O[C@H]1C)C[C@H](O)[C@H]2C(=O)O,-,60 µg/mL
CSc1ccc2c(c1)N(CCC1CCCCN1C)c1ccccc1S2,-,64 µg/mL
COc1ccc2nc(N3CCOCC3)c(CC(C#N)c3nc4ccccc4[nH]3)cc2c1,MTCC 227,250 µg/mL
C[C@@H]1[C@H](O)[C@@H](C)/C=C/C=C/CC/C=C/C=C/C=C/C=C/C(O[C@H]2O[C@H](C)[C@@H](O)[C@H](N)[C@@H]2O)CC2O[C@](O)(CC(O)C(O)CCC(O)CC(O)CC(O)CC(=O)O[C@H]1C)CC(O)C2C(=O)O,Clinical isolates,2 µg/mL
N#CC(Cc1cc2ccccc2nc1N1CCOCC1)c1nc2ccccc2[nH]1,MTCC 227,500 µg/mL
CCC(C)n1ncn(-c2ccc(N3CCN(c4ccc(OC[C@H]5CO[C@](Cn6cncn6)(c6ccc(Cl)cc6Cl)O5)cc4)CC3)cc2)c1=O,ATCC 60027,>150 µg/mL
CN(C)CCC=C1c2ccccc2C=Cc2ccccc21,-,64 µg/mL
CC1(C)C=C2C3CCC4[C@@]5(C)CCC(O)C(C)(C)C5CC[C@@]4(C)[C@]3(C)CC[C@@]2(C(=O)O)CC1,ATCC 10231,>200 µg/mL
C/C=C/Cc1ccc(OC)cc1,-,4740 µg/mL
O=c1[nH]c2ccccc2n1C1CCN(CCCC(c2ccc(F)cc2)c2ccc(F)cc2)CC1,-,>128 µg/mL
Cc1ccc2nc(Sc3ccccc3)c(C3C(C#N)=C(N)Oc4c3c(=O)oc3ccccc43)cc2c1,MTCC 227,250 µg/mL
O=C1c2cc(CO)cc(O)c2C(=O)c2cc(O)cc(O)c21,MTCC 227,>250 µg/mL
Cc1ccccc1.Cc1ccccc1.SP1(Sc2ccccc2)=NP2(=NP(Cl)(Cl)=N1)NCCCN2CCCCN1CCCNP12=NP(Cl)(Cl)=NP(S)(Sc1ccccc1)=N2,ATCC 102031,2–1024 µg/mL
Cc1ccc(Sc2nc3ccc(C)cc3cc2C2C(C#N)=C(N)Oc3c2c(=O)oc2ccc(C)cc32)cc1,MTCC 227,>1000 µg/mL
OC(Cn1cncn1)(Cn1cncn1)c1ccc(F)cc1F,YL 363,>512 µg/mL
O=C(/C=C/c1ccccc1)c1cccc(N(CCO)CCO)c1,ATCC 10231,32 µg/mL
CC(C)COCC(CN(Cc1ccccc1)c1ccccc1)N1CCCC1,-,>128 µg/mL
Cc1ccc2nc(Sc3ccc(Cl)cc3)c(C3C(C#N)=C(N)Oc4c3c(=O)oc3ccccc43)cc2c1,MTCC 227,>1000 µg/mL
C=CCSS(=O)CC=C,-,>160 µg/mL
CCOC(=O)C1=C(N)N(c2nc(-c3ccccc3O)cs2)C2=C(C(=O)CCC2)C1c1cc2cc(Cl)ccc2nc1F,MTCC 227,250 µg/mL
C/C=C/c1ccc(O)c(OC)c1,-,170 µg/mL
C[C@H]1[C@H](O)[C@@H](C)/C=C/C=C/C=C/C=C/C=C/C=C/C=C/[C@H](O[C@@H]2O[C@H](C)[C@@H](O)[C@H](N)[C@@H]2O)C[C@@H]2O[C@](O)(C[C@@H](O)C[C@@H](O)CC[C@H](O)[C@@H](O)C[C@@H](O)CC(=O)O[C@H]1C)C[C@H](O)[C@H]2C(=O)O,-,4.6 µM
Cc1ccc2nc(F)c(C3C(C#N)=C(N)N(c4nc(-c5ccc(O)cc5)cs4)C4=C3C(=O)CCC4)cc2c1,MTCC 227,>1000 µg/mL
CC1(C)C(O)NP2(=NP34=NP5(=N2)NCCCN5CCCCN3CCCN4)NC1O,ATCC 102031,2–1024 µg/mL
CCN(CC)CCOc1ccc(C(=C(Cl)c2ccccc2)c2ccccc2)cc1,-,64 µg/mL
Cc1ccc(Sc2nc3ccc(C)cc3cc2C2C(C#N)=C(N)Oc3cc(C)oc(=O)c32)cc1,MTCC 227,500 µg/mL
COc1ccc([Se][Se]c2ccc(OC)cc2)cc1,-,4–32 µg/mL
C[C@@H](c1ncncc1F)[C@](O)(Cn1cncn1)c1ccc(F)cc1F,Clinical isolates,0.03 µg/mL
C[C@@H]1[C@H](O)[C@@H](C)/C=C/C=C/CC/C=C/C=C/C=C/C=C/C(O[C@H]2O[C@H](C)[C@@H](O)[C@H](N)[C@@H]2O)CC2O[C@](O)(CC(O)C(O)CCC(O)CC(O)CC(O)CC(=O)O[C@H]1C)CC(O)C2C(=O)O,MTCC 227,100 µg/mL
C[C@@H]1O[C@@H](Oc2c(-c3ccc(O)c(O)c3)oc3cc(O)cc(O)c3c2=O)[C@H](O)[C@H](O)[C@H]1O,ATCC 10231,100 µg/mL
c1ccc([Se][Se]c2ccccc2)cc1,-,4–32 µg/mL
COc1ccc2nc(Sc3ccc(Cl)cc3)c(C3C(C#N)=C(N)Oc4cc(C)oc(=O)c43)cc2c1,MTCC 227,250 µg/mL
C[C@@H]1C=C2C3CCC4[C@@]5(C)CC[C@@H](O)C(C)(C)C5CC[C@@]4(C)[C@]3(C)CC[C@@]2(C(=O)O)CC1,ATCC 10231,>200 µg/mL
C[C@H]1[C@H](O)[C@@H](C)/C=C/C=C/C=C/C=C/C=C/C=C/C=C/[C@H](O[C@@H]2O[C@H](C)[C@@H](O)[C@H](N)[C@@H]2O)C[C@@H]2O[C@](O)(C[C@@H](O)C[C@@H](O)CC[C@H](O)[C@@H](O)C[C@@H](O)CC(=O)O[C@H]1C)C[C@H](O)[C@H]2C(=O)O,Clinical isolates,0.5 µg/mL
Oc1ccccc1,-,>45260 µg/mL
OC1NP2(=NP34=NP5(=N2)NCCCN5CCCCN3CCCN4)NC(O)C(F)(F)C1(F)F,ATCC 102031,2–1024 µg/mL
[Na+].[O-]Cl,ATCC 10231,50 µg/mL